Experimental findings from PMC8593223, “Rapid Identification of Secondary Structure and Binding Site Residues in an Intrinsically Disordered Protein Segment” (Frontiers in Genetics, 2021) are described below.

This test concerns the target MazE6 G59C, displayed on the yeast cell surface (M. tuberculosis, UniProt P9WJ87 1-82, G59 substituted to a non-charged cysteine residue). Briefly: flow cytometry on cells.

B1: MazF6 toxin, (His)6MazF6(FLAG)3 (natural protein)
chain: MVISRAEIYWADLGPPSGSQPAKRRPVLVIQSDPYNASRLATVIAAVITSNTALAAMPGNVFLPATTTRLPRDSVVNVTAIVTLNKTDLTDRVGEVPASLMHEVDRGLRRVLDL
Consider B1, for which the “MFI^ratio (binding:expression MFI, normalised to WT)” value worked out at 0.8.
